# Assay results reported in publication PMC9511408, “Ion selectivity and gating behavior of the CorA-type channel Bpss1228” (Frontiers in Chemistry, 2022).
# B1: Bpss1228 (natural protein)
# chain: MKPEMIIQTYGADTSGMVCGFRFAPDSAGEPVDAGVAAEWAAGRGARPDEFLWLHFNLAHGASERWMRAHLDLPETFHEFLREGSHSTRIEQQDGVLRAVVNDVMFSLDLEASEIATMWAYVDRRMMVTARAKPLRSIDTLRESVRQGERFRSPAELLIHLLRDQADLMMHIVRRASTDVDRIEDRFLSERLSANRGQLSAMRRTLTRLQRMLAPEPGSIFRLLAKPPAWLLSADVQELRESTEEFSVVLADLAGLIERIKLLQEEIASRLDEQNNRTLFTLTLVTVIALPINIVAGFFGMNVGGIPFSENKHGFWMMVLLVAGFTALAAWWTFWRRGDR
# Biological target: the molecule itself
# Assay: SEC
protein,measurement,value
B1,stoichiometry N,5
